From patent US20130012506A1 (priority 2010, published 2013)

Tested on: M. tuberculosis H37Rv
Assay: Frequency of spontaneous resistance on 7H10 agar
Assay type: cell-based, Mycobacterium tuberculosis

| Compound | colonies (10 μg/ml, inoculum 10^6 CFU) | colonies (10 μg/ml, inoculum 10^7 CFU) | colonies (10 μg/ml, inoculum 10^8 CFU) | Frequency of resistance (0.4 μg/ml) | colonies (0.4 μg/ml, inoculum 10^6 CFU) | colonies (0.4 μg/ml, inoculum 10^7 CFU) | colonies (0.4 μg/ml, inoculum 10^8 CFU) | colonies (0.8 μg/ml, inoculum 10^6 CFU) | colonies (0.8 μg/ml, inoculum 10^7 CFU) | colonies (0.8 μg/ml, inoculum 10^8 CFU) | colonies (1.6 μg/ml, inoculum 10^6 CFU) | colonies (1.6 μg/ml, inoculum 10^7 CFU) | colonies (1.6 μg/ml, inoculum 10^8 CFU) | Frequency of resistance (3.2 μg/ml) | colonies (3.2 μg/ml, inoculum 10^6 CFU) | colonies (3.2 μg/ml, inoculum 10^7 CFU) | colonies (3.2 μg/ml, inoculum 10^8 CFU) |
| --- | --- | --- | --- | --- | --- | --- | --- | --- | --- | --- | --- | --- | --- | --- | --- | --- | --- |
| NNC(=O)c1ccncc1 [INH, isoniazid] | — | 4 | 18 |  |  |  |  |  |  |  |  |  |  |  |  |  |  |
| O=c1c(CO)c(Nc2cccc(Cl)c2)nc2c(F)cccn12 [compound 264, 2-(3-Chlorophenylamino)-9-fluoro-3-(hydroxymethyl)-4H-pyrido[1,2-a]pyrimidin-4-one] |  |  |  | 3.4×10^−6 | — | 37 | 306 | — | 5 | 117 | — | — | 22 | 2×10^−8 | — | — | 2 |
